Compound potency records, mixed from different reports. Data source: NIAID ChemDB in PubChem.

All rows: growth or infection tests; species: Mycobacterium tuberculosis

MIC50, MIC90 and the like: level of inhibition, or share of isolates inhibited. MIC bound comes from a single tested concentration. Lines come from different laboratories, so protocols vary. An empty or dashed field is not shown. Inhibition is in % at the dose shown (toxicity tests: loss of growth or viability). ECn: concentration that inhibits the pathogen or its effect by n%. a–b is a range or a potency band.

structure	read-out	strain or isolate	cell line	mutations	conditions	tested at	method	value
Cc1c(C(=O)c2ccccc2)[n+](=O)c2ccccc2n1[O-]	MIC	H37Rv	VERO				BACTEC	6.25 µg/mL
CN1CCN(Cc2ccc(NC(=O)c3ccc(Cl)cc3)cc2)CC1	MIC	103471						8 µg/mL
COc1cccc(N=Nc2sc(N)nc2-c2ccccc2)c1	MIC bound	H37Rv					BACTEC	>6.25 µg/mL
CCc1ccccc1NC(=O)c1c(C)n([O-])c2ccc(C(F)(F)F)cc2[n+]1=O	EC90	H37Rv	VERO				resazurin	1.153 µg/mL
CC(=O)C(CC(=O)Nc1ccc(Cl)cc1)C(=O)Nc1cccc2ccccc12	inhibition	H37Rv				5 µg/mL		0%
O=C(Cc1cccs1)N[C@@H]1C(=O)N2C(C(=O)[O-])=C(C[n+]3ccccc3)CS[C@H]12	MIC	Isolate 1						>16 µg/mL
COc1ccc(/C=C2\CN(C)C/C(=C\c3ccc(OC)cc3)C2=O)cc1	MIC bound	H37Rv					BACTEC	>12.5 µg/mL
COc1ccc(NC(N)=S)cc1	MIC	A67						500 µM
O=C(Nc1ccc(Cl)c(Cl)c1)c1cc(Cl)ccc1OP(=O)(OCc1ccccc1)OCc1ccccc1	MIC	My 331/88			7 d			32 µM
NC(=S)Nc1ccc(Br)cc1	MIC	A67						250 µM
CCOC(=O)c1ccc(NC(=O)C(CC(=O)Nc2ccc(Cl)cc2)C(C)=O)cc1	inhibition	H37Rv				5 µg/mL		0%
O=C(c1ccc(I)cc1)c1ccc(-c2ccc(Br)cc2)cc1	MIC	ATCC 27294						≥32 µg/mL
CCc1nc2ccc(Cl)cn2c1C(=O)NCc1ccc(NCCN2CCOCC2)c(F)c1	MIC90	H37Rv					resazurin	2–10 µM
CC(C)N(O)C(=O)C(=O)O	MIC	P4145						125 µM
O=C1c2cc(Cl)ccc2OP(=O)(c2ccccc2)N1c1ccc(C(F)(F)F)cc1	MIC	9449/2007			21 d			1 µM
CCc1ccccc1NC(=O)c1c(C)n([O-])c2ccc(Cl)cc2[n+]1=O	EC90	H37Rv	VERO				resazurin	<0.2 µg/mL
Cc1ccc2nc(C(F)(F)F)c(C(=O)NCc3ccc4c(c3)CCO4)n2c1	MIC90	H37Rv					resazurin	<2 µM
Cl.O=C(Cc1ccccc1)N/N=C(\CCN1CCCC1)CC(c1ccccc1)c1c(O)c2ccccc2oc1=O	MIC bound	H37Rv					BACTEC	>12.5 µg/mL
CC(=O)c1c(CN2CCN(c3ccccc3C)CC2)n([O-])c2ccccc2[n+]1=O	inhibition	H37Rv				6.25 µg/mL	BACTEC	0%
NNC(=O)c1ccncc1	MIC50	22 isolates (rifampicin isoniazid-susceptible)						0.06 µg/mL
COc1ccc(N2CCN(Cc3ccc([N+](=O)[O-])o3)CC2)cc1	MIC	RifR		Rifampicin-resistant			resazurin	1.32 µM
CC(=O)C(CC(=O)Nc1ccccc1)C(=O)Nc1cccc2ccccc12	inhibition	H37Rv				5 µg/mL		0%
Cc1ccn2c(C(=O)NCc3ccc(S(F)(F)(F)(F)F)cc3)c(C)nc2c1	MIC90	H37Rv					resazurin	<2 µM
CCOC(=O)c1ccccc1NC(N)=S	MIC	A67						500 µM
Cc1cc(=O)c2c(O)c3c(O)cc(O)c4c5c(O)cc(O)c6c(O)c7c(=O)cc(C)c8c1c2c(c34)c(c65)c78	inhibition	H37Rv				12.5 µg/mL	BACTEC	14%
CN1CCN(Cc2ccc(NC(=O)c3ccc(-c4ccccc4)cc3)cc2)CC1	MIC	103471						>16 µg/mL
NNC(=O)c1ccncc1	MIC	P4145						2.5 µM
C=CC(C)(C)c1[nH]c2c(CC=C(C)C)cc(CC=C(C)C)cc2c1C[C@@H]1NC(=O)[C@H](C)NC1=O	MIC	H37Ra						170 µM
CCCCCCCCCCCC(CC1OC(=O)C1CCCCCC)OC(=O)C(CC(C)C)NC=O	MIC	H37Rv						50 µg/mL
O=c1oc2nc(-c3ccccc3)[nH]c(=O)c2c2c1CCCC2	inhibition	H37Rv				12.5 µg/mL	BACTEC	23%
CC(=O)C(CC(=O)Nc1ccccc1Cl)C(=O)Nc1cccc2ccccc12	inhibition	H37Rv				30 µg/mL		0%
CCc1ccccc1NC(=O)c1c(C)n([O-])c2cc(Cl)c(Cl)cc2[n+]1=O	EC90	H37Rv	VERO				resazurin	<0.19 µg/mL
CC(=O)C(CC(=O)Nc1cccc(C)c1)C(=O)Nc1cccc2ccccc12	inhibition	H37Rv				5 µg/mL		0%
O=C(Nc1ccc(C(F)(F)F)cc1)c1cc(Br)ccc1OP(=O)(OCc1ccccc1)OCc1ccccc1	MIC	My 331/88			14 d			8 µM
NC(=O)c1nccnc1NCc1ccc(N)cc1	MIC	H37Rv					resazurin / fluorescence	6.25 µg/mL
NC(=S)Nc1ccc(S(N)(=O)=O)cc1	MIC	A67						500 µM
CC(=O)c1c(C)n([O-])c2cc(Cl)c(Cl)cc2[n+]1=O	MIC	H37Rv	VERO				BACTEC	0.39 µg/mL
O=C(Nc1ccccc1CN1CCOCC1)c1ccc(Cl)cc1	MIC	103471						>16 µg/mL
NNC(=O)c1ccncc1	MIC99	mc(^2)7000					agar	0.1 µg/mL
O=c1c2ccccc2c(=O)c2c1ccc1[nH]c3ccccc3sc12	inhibition	H37Rv				12.5 µg/mL	BACTEC	11%
CN1CCN(Cc2ccc(NC(=O)/C=C/c3ccccc3)cc2)CC1	MIC	103471						8 µg/mL
CC(=O)C(CC(=O)Nc1cccc(Cl)c1)C(=O)Nc1cccc2ccccc12	inhibition	H37Rv				30 µg/mL		0%
O=C(Nc1ccccc1CN1CCOCC1)c1ccc(-c2ccccc2)cc1	MIC	103471						>16 µg/mL
C/C([O-])=N/c1on[n+](-c2ccccc2)c1-c1ccccc1	MIC bound	H37Rv					BACTEC	>12.5 µg/mL
COc1ccc(NC(=O)CC(C(C)=O)C(=O)Nc2cccc3ccccc23)cc1	inhibition	H37Rv				30 µg/mL		0%
Cc1ccn2c(C(=O)NCc3ccc(Oc4cccc(C(F)(F)F)c4)cc3)c(C)nc2c1	MIC90	H37Rv					resazurin	<2 µM
Cc1ccc(C(=O)c2ccc(-c3ccc(Br)cc3)cc2)cc1	MIC	ATCC 27294						≥32 µg/mL
NC(=S)Nc1cccc2ccccc12	MIC	A67						250 µM
COc1cc2oc(-c3ccc(O)cc3O)c(CC=C(C)C)c(=O)c2c(O)c1/C=C/C(C)C	MIC	KM-R						>12.5 µg/mL
CC(=O)O[C@H]1C[C@H]2[C@]3(C)CCC4C(C)(C)CCC[C@]4(C)[C@H]3C[C@@H](O)[C@]2(C)C2=C1COC2=O	EC50	H37Rv (ATCC 27294)					BACTEC	<12.5 µg/mL
CO[C@H]1/C=C/O[C@@]2(C)Oc3c(C)c(O)c4c(O)c(c(/C=N/N5CCN(C)CC5)c(O)c4c3C2=O)NC(=O)/C(C)=C\C=C\[C@H](C)[C@H](O)[C@@H](C)[C@@H](O)[C@@H](C)[C@H](OC(C)=O)[C@@H]1C	MIC90	22 isolates (rifampicin isoniazid-susceptible)						≤0.03 µg/mL
O=c1n(-c2ccccc2)c(=O)n2n1C1C=CC2CCCCCC1	inhibition	H37Rv				6.25 µg/mL	resazurin	29%
Cc1ccn2c(C(=O)NCc3cccc(OC(F)(F)F)c3)c(C)nc2c1	MIC90	H37Rv					resazurin	<2 µM
CCOC(=O)c1ccc(NC(N)=S)cc1	MIC	A67						250 µM
O=C(Nc1ccc(C(F)(F)F)cc1)c1cc(Cl)ccc1OP(=O)(c1ccccc1)c1ccccc1	MIC	Praha 131			14 d			1 µM
O=C(Nc1ccc(CN2CCOCC2)cc1)c1ccc(-c2ccccc2)cc1	MIC	103471						>16 µg/mL
COc1cc(OC)nc(NC(=O)NS(=O)(=O)c2ncccc2C(=O)N(C)C)n1	MIC	T13704						16 µM
CCc1nc2ccc(Cl)cn2c1C(=O)NCc1ccc(N2CCS(=O)CC2)cc1	MIC90	H37Rv					resazurin	<2 µM
COc1c(N2CCNC(C)C2)c(F)cc2c(=O)c(C(=O)O)cn(C3CC3)c12	MIC50	23 isolates						0.031 µg/mL
CCc1nc2ccc(Cl)cn2c1C(=O)NCc1ccc(N2CCCN(c3ccc(S(F)(F)(F)(F)F)cc3)CC2)cc1	MIC90	H37Rv					resazurin	<2 µM
Nc1nc(Nc2ccc(Cl)cc2)cc(Nc2ccc(Cl)cc2)n1	MIC	H37Rv						6.25 µg/mL
CCc1nc2sc(C)cn2c1C(=O)NCc1cccc(S(F)(F)(F)(F)F)c1	MIC90	H37Rv					resazurin	<2 µM
CCc1nc2ccc(Cl)cc2c2nc3ccccc3n12	MIC99	H37Rv					resazurin	6.25 µg/mL
Cc1cc(S(=O)(=O)O)c(NC(=O)C(=O)Cc2cc(=O)oc3cc(O)ccc23)cc1Cl	MIC bound	H37Rv					BACTEC	>12.5 µg/mL
NC(=O)c1nccnc1NCc1ccc(C(F)(F)F)cc1	MIC	H37Rv					resazurin / fluorescence	12.5 µg/mL
C[C@@H](O)[C@H]1C(=O)N2C(C(=O)O)=C(SCCN=CN)C[C@H]12	MIC	H37Ra						4 µg/mL
NC(=O)C1C2CC3OC(=O)C1C3C2	MIC bound	H37Rv					BACTEC	>12.5 µg/mL
O=Nc1c2c3ccccc3[nH]c(N3CCC(O)CC3)c-2c2ccccc12	MIC90	H37Rv					resazurin / fluorescence	>20 µg/mL
Cc1cn2c(C(=O)NCc3ccc(N4CCN(C(=O)OCC(C)C)CC4)c(F)c3)c(C)nc2s1	MIC90	H37Rv					resazurin	<2 µM
Cc1ncc([N+](=O)[O-])n1CCNC(=O)Cn1c([N+](=O)[O-])cnc1C	MIC bound	H37Rv					resazurin	>6.25 µg/mL
NC(=S)N/N=C/c1cc([N+](=O)[O-])ccc1O	MIC	A67						500 µM
O=c1c2c([nH]c3c1ccc1c(=O)c4c([nH]c13)CCCC4)CCCC2	MIC bound	H37Rv					BACTEC	>12.5 µg/mL
CC(=O)OCC1=C(C(=O)O)N2C(=O)[C@@H](NC(=O)Cc3cccs3)[C@H]2SC1	MIC	H37Ra						>16 µg/mL
COc1ccc2c(c1)[n+](=O)c(C(=O)c1ccccc1)c(C)n2[O-]	EC50	H37Rv					BACTEC	>6.25 µg/mL
CCc1ccccc1NC(=O)c1c(C)n([O-])c2ccc(C)cc2[n+]1=O	EC90	H37Rv	VERO				resazurin	8.62 µg/mL
CSCSCC(CO)NC(=O)/C=C/c1c(C)[nH]c(=O)[nH]c1=O	MIC	H37Rv					BACTEC	≥12.5 µg/mL
NC(=O)c1cnccn1	MIC	Isolate 97-1174						900 µg/mL
O=C1c2cc(Br)ccc2OP(=O)(c2ccccc2)N1c1ccc(C(F)(F)F)cc1	MIC	Praha 1			14 d			1 µM
O=C1OC(c2ccccc2)=N/C1=C/c1cccc(F)c1	MIC bound	H37Rv					BACTEC	>12.5 µg/mL
CCOC(=O)c1ccc(NC(=O)C(CC(=O)Nc2cccc(Cl)c2)C(C)=O)cc1	inhibition	H37Rv				30 µg/mL		0%
CCN(CC)Cc1c(C)[nH]c2c(OC)cccc2c1=O	MIC bound	H37Rv					BACTEC	>12.5 µg/mL
CC(C)=CCOc1c2ccoc2cc2oc(=O)ccc12.NNC(=O)c1ccncc1	MIC100	H37Rv clinical isolate CRY5		Isoniazid-resistant			agar	25 µg/mL
COc1cc([C@@H]2c3cc4c(cc3[C@@H](Nc3ccc(F)cc3)[C@H]3COC(=O)[C@H]23)OCO4)cc(OC)c1O	MIC bound	H37Rv					BACTEC	>12.8 µg/mL
O=C(Nc1ccc(Cl)c(Cl)c1)c1cc(Cl)ccc1OP(=O)(c1ccccc1)c1ccccc1	MIC	My 331/88			14 d			2 µM
O=C(CCN1CCC2CCC(C2)C1)c1ccc([N+](=O)[O-])o1	MIC bound	H37Rv					resazurin	>6.25 µg/mL
COc1ccc(C(=O)c2ccc(-c3ccc(Br)cc3)cc2)cc1	MIC	ATCC 27294						≥32 µg/mL
Cc1c(Cl)c(Cl)nn1C(C)C(=O)N(C)C	inhibition	H37Rv				12.5 µg/mL	BACTEC	19%
CN1CCN(Cc2ccccc2NC(=O)c2ccc(-c3ccccc3)cc2)CC1	MIC	103471						>16 µg/mL

8 of the rows above, restated:

structure,read-out,strain or isolate,cell line,mutations,conditions,tested at,method,value
COc1ccc(/C=C2\CN(C)C/C(=C\c3ccc(OC)cc3)C2=O)cc1,MIC bound,H37Rv,,,,,BACTEC,>12.5 µg/mL
CCc1ccccc1NC(=O)c1c(C)n([O-])c2ccc(C(F)(F)F)cc2[n+]1=O,EC90,H37Rv,VERO,,,,resazurin,1.153 µg/mL
CCOC(=O)c1ccccc1NC(N)=S,MIC,A67,,,,,,500 µM
NNC(=O)c1ccncc1,MIC50,22 isolates (rifampicin isoniazid-susceptible),,,,,,0.06 µg/mL
CCOC(=O)c1ccc(NC(=O)C(CC(=O)Nc2ccc(Cl)cc2)C(C)=O)cc1,inhibition,H37Rv,,,,5 µg/mL,,0%
COc1cc(OC)nc(NC(=O)NS(=O)(=O)c2ncccc2C(=O)N(C)C)n1,MIC,T13704,,,,,,16 µM
NC(=O)c1nccnc1NCc1ccc(N)cc1,MIC,H37Rv,,,,,resazurin / fluorescence,6.25 µg/mL
CN1CCN(Cc2ccccc2NC(=O)c2ccc(-c3ccccc3)cc2)CC1,MIC,103471,,,,,,>16 µg/mL